Results of unrelated studies side by side (data: NIAID ChemDB).

Common to all: host cell toxicity; cells: A549; read-out: CC50

CCn is the concentration with n% toxicity to the cells.

structure,method,result
C#CCSc1n[nH]c(-c2ccc([N+](=O)[O-])c(C)c2)n1,,>100 µg/mL
NC(=Nc1ccccc1)c1ccc(N2CCN(c3ccc(C(N)=Nc4ccccc4)cc3)CC2)cc1,,>11.6 µg/mL
C=C(C)[C@@H]1CCC2(C(=O)OC)CC[C@]3(C)C(CCC4[C@@](C)(CC#N)C(C(C)(C)C(=O)NCC(=O)OCC)CC[C@]43C)C12,MTT,>100 µM
C#CCSc1n[nH]c(-c2ccc([N+](=O)[O-])c(C(F)(F)F)c2)n1,MTT,>100 µg/mL
NC(=NC1CCCCCC1)c1ccc(N2CCN(c3ccc(C(N)=NC4CCCCCC4)cc3)CC2)cc1,,>0.69 µg/mL
C#CCSc1n[nH]c(-c2cccc(C(F)(F)F)c2)n1,MTT,>100 µg/mL
COC1=CC(=O)c2c(O)c3c(c(O)c2C1=O)CC(C)(O)OC3,MTT,2.2 µg/mL
CCCCCCCCCN=C(N)c1ccc(N2CCN(c3ccc(C(N)=NCCCCCCCCC)cc3)CC2)cc1,,3.17 µg/mL
C#CCSc1n[nH]c(-c2ccc(C(F)(F)F)cc2)n1,,>100 µg/mL
COC1=CC(=O)c2c(O)c(C)c3c(c2C1=O)OC(C)C3,MTT,98.5 µg/mL
FC(F)(F)c1ccc(Cl)c(-c2nc(=S)[nH][nH]2)c1,MTT,>100 µg/mL
CCCN=C(N)c1ccc(N2CCN(c3ccc(C(N)=NCCC)cc3)CC2)cc1,,>153 µg/mL
COc1cc(O)c2c(c1O)C1O[C@]3(C)C[C@H]1[C@@H](CO3)C2=O,MTT,92.5 µg/mL
O=[N+]([O-])c1ccc(-c2nc(=S)[nH][nH]2)cc1,MTT,>100 µg/mL
CCSc1n[nH]c(-c2cccc([N+](=O)[O-])c2C)n1,,>100 µg/mL
S=c1nc(-c2ccc(Cl)cc2)[nH][nH]1,MTT,43.41 µg/mL
c1ccc2[nH]c(-c3ccc(N4CCN(c5ccc(-c6nc7ccccc7[nH]6)cc5)CC4)cc3)nc2c1,,6.08 µg/mL
FC(F)(F)c1cccc(-c2nc(=S)[nH][nH]2)c1,MTT,44.86 µg/mL
CCCCSc1n[nH]c(-c2ccco2)n1,,>100 µg/mL

Again, the opening 2 rows:

structure	method	result
C#CCSc1n[nH]c(-c2ccc([N+](=O)[O-])c(C)c2)n1		>100 µg/mL
NC(=Nc1ccccc1)c1ccc(N2CCN(c3ccc(C(N)=Nc4ccccc4)cc3)CC2)cc1		>11.6 µg/mL

Lines come from different laboratories, so protocols vary. Blank or dashed fields: not listed here.